Results as given in patent US20060034823A1, “Method of production and use of crotoxin as an analgesic” (priority 2004, published 2006).

Test system: pain response in mice induced by Hot Plate
Format: in vivo, Kunming mice
Conditions: for difference to crotoxin on a molar basis: hot-plate model, doses compared on a molar basis

`CCOC(=O)C1(c2ccccc2)CCN(C)CC1` [Dolantin, Meperidine hydrochloride] was tested, and the “quantity administered relative to the quantity of crotoxin” value (Dolantin 40 mg/kg vs crotoxin 90 mcg/kg, almost equivalent effect) was “over 400 times” and the “difference to crotoxin on a molar basis” value was 35,000 fold.
With `CC(=O)Oc1ccccc1C(=O)O` [Acetylsalicylic acid, acetylsalicylic acid] the “difference to crotoxin on a molar basis” value was “over 300,000 fold”.

Where a name gives a salt, the structure may show the parent alone.
